{"source": "patent US20250236901A1", "about": "“METHOD OF DETECTING A MICROORGANISM HAVING HIPPURICASE ACTIVITY” (BIOSYNTH AG, priority 2022, published 2025)", "system": "Campylobacter jejuni DSM 4688", "test": "Detection of hippuricase activity with 4-HHA, 4-aminoantipyrine and oxidizing reagent (color / absorbance at 505 nm)", "assay_type": "cell-based", "description": "Campylobacter jejuni DSM 4688 (C. j., catalase positive), Eschericha coli (E. coli, catalase positive) and Campylobacter coli DSM 4689 (C. c., catalase positive), Streptococcus agalactiae ATCC®12386 (S. a., catalase negative) and Streptococcus pyogenes ATCC®19615 (S. p., catalase negative) were cultivated on Columbia Agar with sheep blood (Thermofischer PB5039A) at 37° C. for 48 h, both Campylobacter strains were cultivated under microaerophilic atmosphere (Oxoid, Campylgen CN0025A).\nBiomass of colonies were suspended in sterile phosphate buffer (100 mM, pH 7.4) and the optical density OD was determined and set to OD600 of 0.9.\nTwo hundred μL of cell suspensions were mixed with 25 μL of 4-hydroxyhippuric acid (4-HHA, Bachem, 4005059) stock solution, prepared in 100 mM phosphate buffer pH adjusted to 7.4 in a microtiter plate (SpektraMax M5, Molecular Devices) and incubated for 70 minutes at 37° C. After incubation, 20 μL of a prepared mixture (12.5×) 4-aminoantipyrine (4-AAP, Merck 06800) and peroxidase (HRP, Merck 77332) and 5 μL of 100 mM H2O2 were added. The absorbance at 505 nm was recorded with a plate reader at room temperature. Final concentrations for the assay were 5 mM, 10 mM and 20 mM 4-HHA, 0.5 mM 4-AAP, 4.5 U/mL HRP and 2 mM H2O2.\nBiomass of colonies were suspended in sterile 100 mM phosphate buffer pH 7.4 and the optical density OD600 was set to 0.9 and then serially diluted with the same buffer to an OD600 of 0.5, 0.2 and 0.1.\nTwo hundred μL of cell suspensions were mixed with 25 μL of 100 mM 4-hydroxyhippuric acid (4-HHA, Bachem 4005059) prepared in 100 mM phosphate buffer pH adjusted to 7.4) in a microtiter plate and incubated for 1 h at 37° C. […] The absorbance at 505 nm was recorded with a plate reader (SpektraMax M5, Molecular Devices) at room temperature. […]\nTwo hundred μL of cell suspension were mixed with 25 μL of 100 mM 4-hydroxyhippuric acid (4-HHA, Bachem 4005059, dissolved in 100 mM phosphate puffer pH 7.4) in microtiter plate and incubated for 1 h at 37° C. […] The absorbance at 505 nm was recorded with a plate reader. […]"}
{"molecule": "O=C(O)CNC(=O)c1ccc(O)cc1", "note": "[4-HHA, p-hydroxyhippuric acid]", "values": [{"measurement": "final concentration of 4-HHA with the best performance", "setting": "Example 1, 5, 10 and 20 mM tested, HRP/H2O2", "result": 10, "unit": "mM"}, {"measurement": "OD600 value at which red/pink color was even visible by eye", "setting": "Example 2, HRP/H2O2, corresponds to about 2×10^6 CFU/mL", "result": 0.1}, {"measurement": "OD600 value at which red color was even visible by eye", "setting": "Example 3, HRP/glucose/GOD, corresponds to about 2×10^6 CFU/mL", "result": 0.1}]}
